Laboratory results: patent US8168792B2, “Heterocyclic antiviral compounds” (Roche Palo Alto LLC, priority 2009, dated 2012)

Molecular target: HCV polymerase (NS5B570n-Con1) (Hepatitis C virus genotype 1b, UniProt Q9WMX2)
Test: HCV NS5B RNA polymerase activity (incorporation of radiolabeled nucleotide into RNA)
Type: biochemical, HCV Con1 strain
Details: read-out: IC50 (μM) HCV Pol; HCV polymerase assay in Example 11
Description: The enzymatic activity of HCV polymerase (NS5B570n-Con1) was measured as the incorporation of radiolabeled nucleotide monophosphates into acid insoluble RNA products. Unincorporated radio labeled substrate was removed by filtration and scintillant was added to the washed and dried filter plate containing radio labeled RNA product. The amount of RNA product generated by NS5B570-Con1 at the end of the reaction was directly proportional to the amount of light emitted by the scintillant.
The N-terminal 6-histidine tagged HCV polymerase, derived from HCV Con1 strain, genotype 1b (NS5B570n-Con1) contains a 21 amino acid deletion at the C-terminus relative to the full-length HCV polymerase and was purified from E. coli strain BL21(DE) pLysS. The construct, containing the coding sequence of HCV NS5B Con1 (GenBank accession number AJ242654) was inserted into the plasmid construct pET17b, downstream of a T7 promoter expression cassette and transformed into E. coli. […]
The amount of light emitted from the scintillant was converted to counts per minute (CPM) on a Topcount® plate reader (Perkin-Elmer, Energy Range: Low, Efficiency Mode Normal, Count Time: 1 min, Background Subtract: none, Cross talk reduction: Off).
Data was analyzed in Excel® (Microsoft) and ActivityBase® (Idbs®). […] All data was expressed as a percentage of the positive control. […]

| Structure (SMILES) | IC50 [µM] |
| --- | --- |
| CC(C)(C)c1cc(-c2ccc[nH]c2=O)c2c(c1)C(Cc1ccc(NS(C)(=O)=O)cc1)OC2=O (centres unmarked) | 0.027 |
| CC(C)(C)c1cc2c(c(-c3ccc[nH]c3=O)c1)C(=O)O/C2=C\c1ccc(NS(C)(=O)=O)cc1 | 0.033 |
